Results of unrelated studies side by side (data: NIAID ChemDB).

All rows: tests in culture

MIC50, MIC90 and the like: level of inhibition, or share of isolates inhibited. Conditions beyond the fields shown may differ between rows. Inhibition is in % at the dose shown (toxicity tests: loss of growth or viability).

S=c1[nH]nc(COC(Cn2nnnc2-c2ccccc2)c2ccc(Cl)cc2)n1-c1ccccc1 ; read-out: MIC ; method: broth dilution ; agent: Mycobacterium luteus ; strain or isolate: ATCC 21881 ; value: 50 µg/mL
Cc1ccc(NC(=O)NNC(=O)c2ccncc2)cc1 ; read-out: MIC100 ; method: broth dilution ; conditions: 7 d ; agent: Mycobacterium kansasii ; strain or isolate: My 235/80 ; value: 62.5 µM
O=C(COC(Cn1nnnc1-c1ccccc1)c1ccc(Cl)cc1)NNC(=S)Nc1ccccc1 ; read-out: MIC ; method: broth dilution ; agent: Mycobacterium luteus ; strain or isolate: ATCC 21881 ; value: >200 µg/mL
CCOc1ccc(N2CCN(c3ccc(CNC(=O)c4c(CC)nc5ccc(Cl)cn45)c(F)c3)C[C@@H]2C)cc1.Cl ; read-out: inhibition ; method: fluorescence ; tested at: 0.046 µM ; agent: Mycobacterium avium ; value: 85%
CC[C@H]1OC(=O)[C@H](C)[C@@H](O[C@H]2C[C@@](C)(OC)[C@@H](OC(C)=O)[C@H](C)O2)[C@H](C)[C@@H](O[C@@H]2O[C@H](C)C[C@H](N(C)C)[C@H]2O)C(C)(O)C[C@@H](C)/C(=N\OCCCCOc2ccccc2)[C@H](C)[C@@H](O)[C@]1(C)O ; read-out: MIC ; agent: Mycobacterium avium complex ; strain or isolate: 20096 (clarithromycin-resistant) ; value: 3.13 µg/mL
COc1ccc(Nc2nnc(-c3ccncc3)o2)cc1 ; read-out: MIC100 ; method: broth dilution ; conditions: 7 d ; agent: Mycobacterium kansasii ; strain or isolate: My 235/80 ; value: >125 µM
CC[C@H]1OC(=O)[C@H](C)[C@@H](O[C@H]2C[C@@](C)(OC)[C@@H](O)[C@H](C)O2)[C@H](C)[C@@H](O[C@@H]2O[C@H](C)C[C@H](N(C)C)[C@H]2O)[C@](C)(OC)C[C@@H](C)C(=O)[C@H](C)[C@@H](O)[C@]1(C)O ; read-out: MBC ; agent: Mycobacterium fortuitum ; strain or isolate: ATCC 6841 ; value: >8 µg/mL
CCCO/N=C1\[C@H](C)CC(C)(O)[C@H](O[C@@H]2O[C@H](C)C[C@H](N(C)C)[C@H]2O)[C@@H](C)[C@H](OC2C[C@@](C)(OC)[C@@H](O)[C@H](C)O2)[C@@H](C)C(=O)O[C@H](CC)[C@@](C)(O)[C@H](O)[C@H]1C ; read-out: MIC ; agent: Mycobacterium avium complex ; strain or isolate: 20092 (clarithromycin-resistant) ; value: >50 µg/mL
O=C(COC(Cn1nnnc1-c1ccccc1)c1ccc(Cl)cc1)N/N=C/c1ccc(Cl)cc1 ; read-out: MIC ; method: broth dilution ; agent: Mycobacterium luteus ; strain or isolate: ATCC 21881 ; value: 100 µg/mL
COc1c(N2CC[C@@H](CN)C2)c(F)cc2c(=O)[nH]c(=O)n(C3CC3)c12 ; read-out: MIC99 ; agent: Mycobacterium smegmatis ; strain or isolate: G89C mutant ; value: 25 µg/mL
Cc1ccn2c(C(=O)NCc3ccc(C4CCN(c5ccc(OC(F)(F)F)cc5)CC4)cc3F)c(C)nc2c1 ; read-out: inhibition ; method: fluorescence ; tested at: 0.58 µM ; agent: Mycobacterium avium ; value: 85%
C[C@H]1C[C@H](N)CN1c1cc2c(cc1F)c(=O)c(C(=O)O)cn2-c1ccc(F)cc1F ; read-out: MBC90 ; agent: Mycobacterium fortuitum ; strain or isolate: 25 isolates ; value: >8 µg/mL
CCC1OC(c2ccncc2)=NN1C(C)=O ; read-out: MIC ; method: agar ; agent: Mycobacterium intracellulare ; value: >100 µg/mL
C[C@@H]1CN(c2c(F)c(N)c3c(=O)c(C(=O)O)cn(C4CC4)c3c2F)C[C@H](C)N1 ; read-out: MBC ; agent: Mycobacterium fortuitum ; strain or isolate: ATCC 6841 ; value: 0.5 µg/mL
CCCCCCCCCCCCO/N=C1\[C@H](C)CC(C)(O)[C@H](O[C@@H]2O[C@H](C)C[C@H](N(C)C)[C@H]2O)[C@@H](C)[C@H](O[C@H]2C[C@@](C)(OC)[C@@H](OC(C)=O)[C@H](C)O2)[C@@H](C)C(=O)O[C@H](CC)[C@@](C)(O)[C@H](O)[C@H]1C ; read-out: MIC ; agent: Mycobacterium avium complex ; strain or isolate: 20096 (clarithromycin-resistant) ; value: 6.25 µg/mL
O=C(COC(Cn1nnnc1Cc1ccccc1)c1ccc(Cl)cc1)N/N=C/c1ccc(Cl)cc1 ; read-out: MIC ; method: broth dilution ; agent: Mycobacterium luteus ; strain or isolate: ATCC 21881 ; value: 100 µg/mL
Cc1ccn2c(C(=O)NCc3ccc(C4CCN(c5ccc(OC(C)C)cc5)CC4)c(F)c3)c(C)nc2c1 ; read-out: inhibition ; method: fluorescence ; tested at: 0.1 µM ; agent: Mycobacterium avium ; value: 85%
CCCCCCCC1SCC(=O)N1NC(=O)c1ccncc1 ; read-out: MIC ; method: agar ; agent: Mycobacterium intracellulare ; value: 50 µg/mL
CO[C@H]1/C=C/O[C@@]2(C)Oc3c(C)c(O)c4c(O)c(c(/C=N/N5CCN(C6CCCC6)CC5)c(O)c4c3C2=O)NC(=O)/C(C)=C\C=C\[C@H](C)[C@H](O)[C@@H](C)[C@@H](O)[C@@H](C)[C@H](OC(C)=O)[C@@H]1C ; read-out: MIC ; agent: Mycobacterium avium intracellulare ; strain or isolate: 12-Feb ; value: 0.5 µg/mL
CCOC(=O)c1c(-c2ccccc2)c2ccc(Cl)cc2oc1=O ; read-out: MIC90 ; method: resazurin ; agent: Mycobacterium marinum ; strain or isolate: ATCC 927 ; value: >100 µg/mL
Cc1ccc(COc2ccc(-c3n[nH]c(C(F)(F)F)c3-c3cccc4ccccc34)c(O)c2)cc1 ; read-out: MIC ; method: visual reading ; agent: Mycobacterium marinum ; value: >50 µg/mL
CC(C)CCOc1ccc(NC(=S)Nc2ccc(OCCC(C)C)cc2)cc1 ; read-out: MIC ; agent: Mycobacterium aurum ; strain or isolate: A+ ; value: 2 µg/mL
CC[C@H]1OC(=O)[C@H](C)[C@@H](O[C@H]2C[C@@](C)(OC)[C@@H](OC(C)=O)[C@H](C)O2)[C@H](C)[C@@H](O[C@@H]2O[C@H](C)C[C@H](N(C)C)[C@H]2OC(=O)NNCc2ccccc2OC)C(C)(O)C[C@@H](C)/C(=N\OCCCC2CCCCC2)[C@H](C)[C@@H](O)[C@]1(C)O ; read-out: MIC ; agent: Mycobacterium avium complex ; strain or isolate: 20096 (clarithromycin-resistant) ; value: 0.39 µg/mL
CCOc1ccc(N2CCC(c3ccc(CNC(=O)c4c(CC)nc5cc(F)ccn45)c(F)c3)CC2)cc1.Cl ; read-out: inhibition ; method: fluorescence ; tested at: 0.0083 µM ; agent: Mycobacterium avium ; value: 85%
O=C(COC(Cn1nnnc1Cc1ccccc1)c1ccc(Cl)cc1)NNC(=S)Nc1ccccc1 ; read-out: MIC ; method: broth dilution ; agent: Mycobacterium luteus ; strain or isolate: ATCC 21881 ; value: 100 µg/mL
C=C(C)COc1ccc(-c2n[nH]c(C(F)(F)F)c2-c2ccccc2OC)c(O)c1 ; read-out: MIC ; method: visual reading ; agent: Mycobacterium marinum ; value: 50 µg/mL
CCCCc1ccc(NC(=O)NNC(=O)c2ccncc2)cc1 ; read-out: MIC100 ; method: broth dilution ; conditions: 7 d ; agent: Mycobacterium kansasii ; strain or isolate: My 6509/96 ; value: 32 µM
CCCCCCCCO/N=C1\[C@H](C)CC(C)(O)[C@H](O[C@@H]2O[C@H](C)C[C@H](N(C)C)[C@H]2O)[C@@H](C)[C@H](OC2C[C@@](C)(OC)[C@@H](O)[C@H](C)O2)[C@@H](C)C(=O)O[C@H](CC)[C@@](C)(O)[C@H](O)[C@H]1C ; read-out: MIC ; agent: Mycobacterium avium complex ; strain or isolate: 20096 (clarithromycin-resistant) ; value: 6.25 µg/mL
Cc1nc2ccc(F)cn2c1C(=O)NCc1ccc(N2CC(c3ccc(OC(F)(F)F)cc3)C2)c(F)c1 ; read-out: inhibition ; method: fluorescence ; tested at: 0.13 µM ; agent: Mycobacterium avium ; value: 85%
COc1ccc(-c2c(-c3ccc(OCc4ccc([N+](=O)[O-])cc4)cc3O)n[nH]c2C(F)(F)F)cc1 ; read-out: MIC ; method: visual reading ; agent: Mycobacterium marinum ; value: 50 µg/mL
C[C@H]1COC2(CCN(c3nc(=O)c4cc(C(F)(F)F)cc([N+](=O)[O-])c4s3)CC2)O1 ; read-out: MIC ; method: fluorescence ; changes: DprE1 mutant (G248S) ; agent: Mycobacterium bovis BCG ; strain or isolate: recG ; value: 0.004 µM
CC[C@H]1OC(=O)[C@H](C)[C@@H](O[C@H]2C[C@@](C)(OC)[C@@H](OC(C)=O)[C@H](C)O2)[C@H](C)[C@@H](O[C@@H]2O[C@H](C)C[C@H](N(C)C)[C@H]2OC(=O)NNCc2cccc([N+](=O)[O-])c2)C(C)(O)C[C@@H](C)/C(=N\OCCCC2CCCCC2)[C@H](C)[C@@H](O)[C@]1(C)O ; read-out: MIC ; agent: Mycobacterium avium complex ; strain or isolate: 20039 (clarithromycin-susceptible) ; value: 0.78 µg/mL
NC1CCN(c2c(F)cc3c(=O)c(C(=O)O)cn(C4CC4)c3c2Cl)C1 ; read-out: MIC50 ; agent: Mycobacterium fortuitum ; strain or isolate: 25 isolates ; value: 0.5 µg/mL
Cc1c(N2CC[C@@H](CN)C2)c(F)cc2c(=O)n(N)c(=O)n(C3CC3)c12 ; read-out: MIC99 ; agent: Mycobacterium smegmatis ; strain or isolate: D95Y mutant ; value: 2.5 µg/mL
Fc1cc(Br)ccc1Nc1nnc(-c2ccncc2)o1 ; read-out: MIC100 ; method: broth dilution ; conditions: 14 d ; agent: Mycobacterium kansasii ; strain or isolate: My 235/80 ; value: >125 µM
CCc1nc2cc(F)ccn2c1C(=O)NCc1cc(F)c(N2CCC(c3ccc(OC(F)(F)F)cc3)CC2)c(F)c1.Cl ; read-out: inhibition ; method: fluorescence ; tested at: 0.0061 µM ; agent: Mycobacterium avium ; value: 85%
CCCCCCCc1ccc(NC(=O)NNC(=O)c2ccncc2)cc1 ; read-out: MIC100 ; method: broth dilution ; conditions: 7 d ; agent: Mycobacterium kansasii ; strain or isolate: My 6509/96 ; value: 62.5 µM
COc1c(N2CC[C@@H](CN)C2)c(F)cc2c(=O)n(N)c(=O)n(C3CC3)c12 ; read-out: MIC99 ; agent: Mycobacterium smegmatis ; strain or isolate: A91V mutant ; value: 5 µg/mL
CCOc1ccc(N2CCN(c3ccc(CNC(=O)c4c(CC)nc5ccc(Cl)cn45)c(F)c3)C[C@@H]2C)c(F)c1.Cl ; read-out: inhibition ; method: fluorescence ; tested at: 0.47 µM ; agent: Mycobacterium avium ; value: 85%
CCC1CN(c2c(F)cc3c(=O)[nH]c(=O)n(C4CC4)c3c2OC)CCN1 ; read-out: MIC99 ; agent: Mycobacterium smegmatis ; strain or isolate: G89C mutant ; value: 200 µg/mL
CCOc1ccc(-c2n[nH]c(C(F)(F)F)c2-c2ccccc2)c(O)c1 ; read-out: MIC ; method: visual reading ; agent: Mycobacterium marinum ; value: >50 µg/mL
CC[C@H]1OC(=O)[C@H](C)[C@@H](O[C@H]2C[C@@](C)(OC)[C@@H](OC(C)=O)[C@H](C)O2)[C@H](C)[C@@H](O[C@@H]2O[C@H](C)C[C@H](N(C)C)[C@H]2O)C(C)(O)C[C@@H](C)/C(=N\OCCCc2ccccc2)[C@H](C)[C@@H](O)[C@]1(C)O ; read-out: MIC ; agent: Mycobacterium avium complex ; strain or isolate: 20096 (clarithromycin-resistant) ; value: 3.13 µg/mL

Repeating the first 3 entries:

S=c1[nH]nc(COC(Cn2nnnc2-c2ccccc2)c2ccc(Cl)cc2)n1-c1ccccc1 ; read-out: MIC ; method: broth dilution ; agent: Mycobacterium luteus ; strain or isolate: ATCC 21881 ; value: 50 µg/mL
Cc1ccc(NC(=O)NNC(=O)c2ccncc2)cc1 ; read-out: MIC100 ; method: broth dilution ; conditions: 7 d ; agent: Mycobacterium kansasii ; strain or isolate: My 235/80 ; value: 62.5 µM
O=C(COC(Cn1nnnc1-c1ccccc1)c1ccc(Cl)cc1)NNC(=S)Nc1ccccc1 ; read-out: MIC ; method: broth dilution ; agent: Mycobacterium luteus ; strain or isolate: ATCC 21881 ; value: >200 µg/mL